Experimental data from PubChem BioAssay AID1903 (Southern Research Specialized Biocontainment Screening …, 2009).
Some of the results follow. Entries with a potency or affinity are not part of this list. Some structures show a salt or complex split into parts, the way the source records it. Activity calls are given as the source filed them. The rule behind the calls is not given here.

By UniProt entry, the sequences of proteins in these tests, tags left out.
UniProt P03070, whole entry: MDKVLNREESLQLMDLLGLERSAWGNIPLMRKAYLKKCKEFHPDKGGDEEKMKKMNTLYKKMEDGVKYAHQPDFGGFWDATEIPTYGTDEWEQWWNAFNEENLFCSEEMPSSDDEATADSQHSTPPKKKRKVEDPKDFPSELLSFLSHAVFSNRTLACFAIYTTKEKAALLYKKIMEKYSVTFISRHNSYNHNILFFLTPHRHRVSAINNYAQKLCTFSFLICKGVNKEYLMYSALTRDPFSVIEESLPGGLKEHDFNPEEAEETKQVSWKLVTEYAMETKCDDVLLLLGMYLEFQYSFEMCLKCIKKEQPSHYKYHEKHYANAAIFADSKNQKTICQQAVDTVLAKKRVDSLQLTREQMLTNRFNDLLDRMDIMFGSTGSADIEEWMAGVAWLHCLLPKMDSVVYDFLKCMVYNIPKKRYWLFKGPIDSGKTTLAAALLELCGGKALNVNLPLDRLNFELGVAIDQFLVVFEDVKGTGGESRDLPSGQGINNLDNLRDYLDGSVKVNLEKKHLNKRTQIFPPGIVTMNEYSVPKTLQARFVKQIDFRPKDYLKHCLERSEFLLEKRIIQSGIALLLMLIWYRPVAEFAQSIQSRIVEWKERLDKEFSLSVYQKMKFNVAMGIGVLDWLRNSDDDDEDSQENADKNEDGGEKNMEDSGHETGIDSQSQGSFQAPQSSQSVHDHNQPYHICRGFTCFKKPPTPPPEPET

Each compound was assayed against Large T antigen (Simian virus 40) (UniProt P03070) (assay: SV40 large T antigen inhibitors, biochemical (AID 1903)). Settings: SV40 large T antigen ATPase/helicase inhibition assay; at 20 µM; hits give high values.
In the case of `COc1ccc2c(c1O)-c1c(O)c(OC)cc3c1[C@H](C2)[N+](C)(C)CC3.O=[N+]([O-])c1cc([N+](=O)[O-])c([O-])c([N+](=O)[O-])c1[O-]`, the inhibition is reported as inactive: 36.4%. In the case of `COc1ccc(OP(C)(=O)Nc2ccc(SC(F)(F)F)cc2)cc1` (stereo not drawn), the inhibition is reported as inactive: 1.51%. `CCOC(=O)c1ccc(NP(C)(=O)Oc2ccc(F)cc2)cc1` (stereo not drawn) was tested, and the inhibition was inactive: 13.1%. For `CCN(CC)CCCOC(=O)C(O)(c1ccccc1)C1CCCCC1` (stereo not drawn), the inhibition was inactive: 1.74%. `O=[N+]([O-])c1cc([N+](=O)[O-])c(OC2CCCCC2O)c([N+](=O)[O-])c1` (stereo not drawn) was tested, and the inhibition was inactive: 10.5%. In the case of `CCCCCOc1ccc(NP(C)(=O)Oc2ccc(Cl)cc2Cl)cc1` (stereo not drawn), the inhibition is reported as inactive: 9.69%. For `CP(=O)(Nc1ccccc1)Oc1ccc(F)cc1` (stereo not drawn), the inhibition was inactive: 14.6%. For `Cc1cc(C)cc(OP(C)(=O)Nc2cccc(C(F)(F)F)c2)c1` (stereo not drawn), the inhibition was inactive: 21%. In the case of `COc1ccc(OP(C)(=O)Nc2ccccc2Br)cc1` (stereo not drawn), the inhibition is reported as inactive: -2.64%. For `COc1ccccc1OP(C)(=O)Nc1ccc(C)c(C)c1` (stereo not drawn), the inhibition was inactive: 8.23%. In the case of `Cc1nc2ccc3ccccc3c2o1.O=[N+]([O-])c1cc([N+](=O)[O-])c(O)c([N+](=O)[O-])c1`, the inhibition is reported as inactive: 17.4%. `CP(=O)(OCCOc1ccccc1)OCCOc1ccccc1` was tested, and the inhibition was inactive: 4.13%. `CP(=O)(Nc1ccc(Cl)cc1Cl)Oc1ccccc1` (stereo not drawn) was tested, and the inhibition was inactive: 6.48%. `COc1ccccc1OP(C)(=O)Nc1ccc(Br)cc1` (stereo not drawn) was tested, and the inhibition was inactive: 13.5%. `CN(C)CCOC(=O)C(O)(c1ccccc1)C1CCCC1` (stereo not drawn) was tested, and the inhibition was inactive: 4.87%. In the case of `COc1ccc(OP(C)(=O)Nc2ccccn2)cc1` (stereo not drawn), the inhibition is reported as inactive: 0.77%. With `O=[N+]([O-])c1cc([N+](=O)[O-])c(Nc2ccccn2)c([N+](=O)[O-])c1` the inhibition was inactive: 22.1%. In the case of `Cc1c(NP(C)(=O)Oc2ccc(C(C)C)cc2)c(=O)n(-c2ccccc2)n1C` (stereo not drawn), the inhibition is reported as inactive: 10.3%. In the case of `CCc1ccc(OP(C)(=O)O)cc1`, the inhibition is reported as inactive: -6.32%. With `COc1ccccc1OP(C)(=O)Nc1ccc(C)cc1C` (stereo not drawn) the inhibition was inactive: 9.21%. In the case of `CP(=O)(Nc1ccccn1)Oc1ccccc1` (stereo not drawn), the inhibition is reported as inactive: -0.06%. With `COc1ccc(OP(C)(=O)Nc2ccc(Br)cc2)cc1` (stereo not drawn) the inhibition was inactive: -0.16%. With `CCN(CC)CC(O)COC(=O)C(O)(c1ccccc1)C1CCCCC1` (stereo not drawn) the inhibition was inactive: 5.23%. For `CCc1ccc(OP(C)(=O)Nc2cccnc2)cc1` (stereo not drawn), the inhibition was inactive: 2.34%. `CP(=O)(Oc1ccccc1)N1CCOC1=O` (stereo not drawn) was tested, and the inhibition was inactive: 2.63%. `O=C(OCCCN1CCCC1)C(O)(c1ccccc1)C1CCCCC1` (stereo not drawn) was tested, and the inhibition was inactive: 3.54%. For `CP(=O)(Nc1ccc(Cl)cc1)Oc1ccc(F)cc1` (stereo not drawn), the inhibition was inactive: -1.47%. With `CC(C)(C)c1ccc(OP(C)(=O)O)cc1` the inhibition was inactive: 14.9%. `COc1ccccc1OP(C)(=O)Nc1ccccc1Br` (stereo not drawn) was tested, and the inhibition was inactive: 1.03%. In the case of `CN(C)C(=O)c1c([N+](=O)[O-])cc([N+](=O)[O-])cc1[N+](=O)[O-]`, the inhibition is reported as inactive: 7.16%. In the case of `Nc1ccc2c(ccc3cccnc32)n1.O=[N+]([O-])c1cc([N+](=O)[O-])c(O)c([N+](=O)[O-])c1`, the inhibition is reported as inactive: 16.8%. With `CP(=O)(OC12CC3CC(CC(C3)C1)C2)OC12CC3CC(CC(C3)C1)C2` the inhibition was inactive: -1.05%. `CCOC(=O)c1ccc(NP(C)(=O)Oc2ccc(Cl)cc2)cc1` (stereo not drawn) was tested, and the inhibition was inactive: 11.4%.
